Results of unrelated studies side by side (data: NIAID ChemDB).

All rows: tests in culture; organism: HIV-1; method: p24; measure: EC50

Rows are shuffled and stem from different studies. ECn: concentration that inhibits the pathogen or its effect by n%. Blank or dashed fields: not listed here. a–b is a range or a potency band.

compound | mutations | cells | strain or isolate | conditions | result
CCNC(=O)[C@@H](NC(=O)Cc1ccccc1)[C@@H]1N[C@@H](C(=O)NCCNC(=O)[C@@H]2N[C@@H]([C@H](NC(=O)Cc3ccccc3)C(=O)NCC)SC2(C)C)C(C)(C)S1 | - | MT-4 | RF | - | 0.3 µM
Cc1c(O)cccc1C(=O)N[C@@H](CSc1ccccc1)[C@H](O)CN1C[C@H]2CCCC[C@H]2C[C@H]1C(=O)NC(C)(C)C | PR-L10I I15V E35D N37E K45R I54V L63P A71V V82T L90M I93L C95F | PBMC | Clinical isolate | - | >1 µM
C[C@H](CNC(=S)Nc1ccc(Br)cn1)C1CCCCC1 | - | PBMC | IIIB | - | >1 µM
COc1ccc(S(=O)(=O)N(CC(C)C)C[C@@H](O)[C@H](Cc2ccccc2)NC(=O)O[C@H]2CO[C@H]3OCC[C@H]32)cc1 | PR-L10I I15V K20R M36I M46L I54V K55R I62V L63P K70Q V82A L89M | PBMC | Clinical isolate | - | 0.0013 µM
CCC(NC(=S)Nc1ccc(Br)cn1)c1ccccc1 | - | PBMC | IIIB | - | 0.001 µM
COc1cc(C[C@H](C)[C@H](C)Cc2ccc(O)c(O)c2)ccc1O | - | PBMC | JR-CSF | - | 0.06 µg/mL
Cc1csc(NC(=S)N[C@H](C)c2ccccc2)n1 | - | PBMC | RT-Y181C K103N A17 variant NNRTI-resistant | - | 0.19 µM
O=C(O)P(=O)(O)O | - | PBMC | 9281 CLADE A CLADE A | - | 21.6 µM
COC(=O)[C@H](C)NP(=O)(OC[C@@H]1C=C[C@H](n2cc(C)c(=O)[nH]c2=O)O1)Oc1ccc(Br)cc1 | RT-M41L L210W T215Y | PBMC | Q252-2 Clinical isolate ZDV-resistant | - | 0.0019 µM
COc1ccc(CN[C@@H](C(=O)N[C@H](C(=O)NCc2nc3ccccc3[nH]2)C(C)C)[C@H](O)[C@H](Cc2ccccc2)NC(=O)[C@@H](NC(=O)[C@@](C)(O)c2ccccc2)C(C)(C)C)cc1 | - | MT-4 | IIIB | - | 0.0079 µM
Nc1ccn([C@H]2CC[C@@H](CO)O2)c(=O)n1 | - | MT-4 | 126 WT | - | 0.35 µM
CCN1c2ncc(CCOc3ccc(C(=O)O)c4c3CCCC4)cc2C(=O)N(C)c2cccnc21 | RT-V106A | C8166 | - | - | 0.1–1 µM
CC(C)NC(=O)[C@@H]1C[C@@H]2CCCC[C@@H]2N1C(=O)[C@@H](O)[C@H](Cc1ccccc1)NC(=O)[C@@H](NC(=O)COc1cccc2ccccc12)C(C)C | - | MT-2 | RF | - | 0.006–0.11 µM
O=c1[nH]cnc2c1ncn2[C@H]1CC[C@@H](CO)O1 | RT-F77L F116Y Q151M | MT-2 | RT F77L/F116Y/Q151M | - | 11 µM
Cc1cn([C@H]2C[C@H](N=[N+]=[N-])[C@@H](CO)O2)c(=O)[nH]c1=O | - | PBMC | IIIB | - | 0.02 µM
C/C(=C(/CCO)SSCC1CCCO1)N(C=O)Cc1cnc(C)nc1N | - | CEM/HIV-1(LAV-1) + CEM | LAV-1 | - | <50 µM
Nc1ccn([C@H]2CC[C@@H](CO)O2)c(=O)n1 | - | C3 | LAV | - | 0.45 µM
CC(C)(C)NC(=O)[C@@H]1C[C@@H]2CCCC[C@@H]2CN1C[C@@H](O)[C@H](Cc1ccccc1)NC(=O)[C@H](CC(N)=O)NC(=O)c1ccc2ccccc2n1 | - | Primary monocytes + Lymphocytes | BaL | - | 0.0049 µM
Cc1cn([C@H]2C[C@H](N=[N+]=[N-])[C@@H](CO)O2)c(=O)[nH]c1=O | RT-M41L K103N T215Y | PBMC | S159-2 Clinical isolate ZDV-resistant | - | 0.7 µM
Nc1nc(N)c2ncn([C@H]3CC[C@@H](CO)O3)c2n1 | - | C3 | LAV | - | 17 µM
CCN1c2ncccc2-c2nccn2-c2ccc(OC)nc21 | - | H9 | IIIB | 7 d | <0.008 µM
Cc1cn([C@H]2C[C@H](N=[N+]=[N-])[C@@H](CO)O2)c(=O)[nH]c1=O | RT-Q151M | MT-2 | Q151M(RT-Q151M) | - | 0.17 µM
CCN1c2ncccc2-c2nccn2-c2c(C)ccnc21 | - | H9 | IIIB | 7 d | <0.55 µM
Nc1ncnc2c1ncn2CCOCP(=O)(O)O | RT-P119S V179D L214F | MT-2 | RT P119S V179D L214F | - | 1.2 µM
CC(C)(C)NC(=O)[C@@H]1CN(Cc2ccc(Cl)c(Cl)c2)CCN1C[C@@H](O)C[C@@H](Cc1ccccc1)C(=O)N[C@H]1c2ccccc2C[C@H]1O | - | MT-4 | IIIB | - | <0.2 µM
CC1=C(C(=O)Nc2ccc(Cl)c(C(=O)OC(C)C)c2)SCCO1 | - | PBL | RF | - | 0.5 µM
Nc1nc2c(ncn2[C@H]2CC[C@@H](CO)O2)c(=O)[nH]1 | - | C3 | LAV | - | 0.12 µM
Nc1nc(=O)n([C@H]2CO[C@@H](CO)S2)cc1F | RT-K65R | PBMC | HXB2D (RT-K65R) | - | 6.5 µM
Cc1ccc(CCNC(=S)Nc2ccc(Br)cn2)cc1 | - | PBMC | RT-Y181C A17 NNRTI-resistant | - | 0.07 µM
CC(C)[C@H](NC(=O)c1ccc2ccccc2n1)C(=O)N[C@@H](Cc1ccccc1)[C@H](O)C(=O)N1CCC[C@H]1C(=O)NC(C)(C)C | - | MT-2 | RF | - | 0.5 µM
CN(C)c1ccc2cc(S(=O)(=O)N3CCN(C[C@@H](O)C[C@@H](Cc4ccccc4)C(=O)N[C@H]4c5ccccc5C[C@H]4O)[C@H](C(=O)NC(C)(C)C)C3)ccc2n1 | - | MT-4 | IIIB | - | <0.0125 µM
CC(C)(C)NC(=O)[C@@H]1C[C@@H]2CCCC[C@@H]2CN1C[C@@H](O)[C@H](Cc1ccccc1)NC(=O)[C@H](CC(N)=O)NC(=O)c1ccc2ccccc2n1 | PR-L10I I15V E35D N37E K45R I54V L63P A71V V82T L90M I93L C95F | PBMC | Clinical isolate | - | 0.036 µM
C[C@@H]1O[C@@H](OC[C@H]2O[C@@H](Oc3c(-c4ccc(OS(=O)(=O)O)c(OS(=O)(=O)O)c4)oc4cc(OS(=O)(=O)O)cc(OS(=O)(=O)O)c4c3=O)[C@H](OS(=O)(=O)O)[C@@H](OS(=O)(=O)O)[C@@H]2OS(=O)(=O)O)[C@H](OS(=O)(=O)O)[C@H](OS(=O)(=O)O)[C@H]1OS(=O)(=O)O | - | PBMC | ADAM R5 | - | 4.5 µM
CC(C)=CCC[C@@H](C)C1CC[C@]2(C)CC=C(C=O)C1(C=O)[C@@H]2O | - | PM1 | Subtype B isolate BR48 | - | 40 µg/mL
Cc1cccc(NC(=S)N[C@H](C)c2ccccc2)n1 | - | PBMC | IIIB | - | 0.025 µM
C=C[C@]1(C)COC(=O)[C@@]12O[C@]1(c3ccccc3)[C@@H]3C(C)=CC[C@H]([C@H](C)CCC=C(C)C)[C@@H]3[C@@H]1C2=O | - | H9 | IIIB | - | 0.798 µg/mL
c1cc(CN2CCCNCCNCCCNCC2)ccc1CN1CCCNCCNCCCNCC1 | - | PBMC | SW7 CLADE C X4 | - | <0.1 µM
O=C(O)c1cc(-c2ccc(/C=C3\SC(=S)N(c4cccc(F)c4)C3=O)o2)ccc1Cl | - | MT-2 | IIIB | - | 0.868 µM
C[C@@H](CNC(=S)Nc1ccccn1)c1ccccc1 | - | PBMC | IIIB | - | 0.028 µM
CC(C)(C)NC(=O)[C@@H]1C[C@@H]2CCCC[C@@H]2N1C(=O)[C@@H](O)[C@H](Cc1ccccc1)NC(=O)[C@H](CC(N)=O)NC(=O)COc1cccc2ccccc12 | - | MT-2 | RF | - | 0.005–0.038 µM
COC(=O)[C@H](C)NP(=O)(OC[C@@H]1C=C[C@H](n2cc(C)c(=O)[nH]c2=O)O1)Oc1ccc(Br)cc1 | RT-M42L M184V T215Y | PBMC | C140 NRTI resistant | - | 0.0025 µM
O=C1O[C@H]2[C@@H]3OC(=O)c4cc(O)c(O)c(O)c4-c4c(cc(O)c(O)c4O)C(=O)OC[C@H]2O[C@@H](OC(=O)c2cc(O)c(O)c(O)c2)[C@@H]3OC(=O)c2cc(O)c(O)c3c2[C@@H]2C1=CC(=O)[C@](O)(O3)C2(O)O | - | MAGI | - | - | <2.5 µg/mL
CN[C@H]1C[C@@H](N)[C@H](O)[C@@H](O[C@@H]2O[C@H](CO)[C@H](O)[C@@H]3OC4(O[C@H]23)O[C@H]([C@@H](N)CO)[C@H](O)[C@@H](O)[C@H]4O)[C@@H]1O | - | PBMC | 92HT593 | - | ~4 µM
Cc1ccnc2c1NC(=O)c1cccnc1N2C1CC1 | - | Macrophage | Ba-L-85 | - | 0.044 µM
COC(=O)[C@H]1CC[C@H]2[C@@H]3CC=C4CC(O)CC[C@]4(C)[C@H]3CC[C@]12C | - | H9 | IIIB | - | 18 µM
Nc1nc(=O)n([C@@H]2CO[C@H](CO)S2)cc1F | RT-M184V | PBMC | HXB2D (RT-M184V) | - | 9 µM
COc1ccc2c3ccn(C)c(C)c-3nc2c1 | - | H9 | IIIB | - | 4.5 µM
O=C1NC(=O)C(c2ccccc2)(c2ccccc2)N1 | - | H9 | IIIB | - | <20 µg/mL
Cc1cn([C@H]2C[C@H](N=[N+]=[N-])[C@@H](CO)O2)c(=O)[nH]c1=O | - | H9 | IIIB | - | 0.0804 µM
CCC(C)[C@H](NC(=O)[C@H](C(C)C)[C@@H](O)[C@H](O)[C@H](CC1CCCCC1)NC(=O)c1ccccc1SCCCCC[C@@H]1SC[C@@H]2NC(=O)NC21)C(=O)NCc1ccccn1 | - | H9 | IIIB | - | 0.8 µM
CC(C)=CCC/C(C)=C/CC[C@@]1(C)C=Cc2c(cc(C)c(C(=O)O)c2O)O1 | - | H9 | IIIB | - | 0.15 µM
CC(C)C[C@H](NC(=O)[C@H](Cc1ccccc1)C[C@H](O)[C@H](Cc1ccccc1)NC(=O)OC(C)(C)C)C(=O)N[C@@H](Cc1ccccc1)C(N)=O | - | H9 | IIIB | - | 6 µM
Cc1cn([C@H]2C[C@H](N=[N+]=[N-])[C@@H](CO)O2)c(=O)[nH]c1=O | - | MT-4 | IIIB | - | <0.04 µM
CCN1c2ncccc2-c2ncc(C)n2-c2cccnc21 | - | H9 | IIIB | 7 d | <0.018 µM
CC(C)(C)NC(=O)[C@H]1CC[C@H]2[C@@H]3CCC4=CC(=O)CC[C@]4(C)[C@H]3CC[C@]12C | - | H9 | IIIB | - | 0.8 µM
Cc1cn([C@H]2C[C@H](N=[N+]=[N-])[C@@H](CO)O2)c(=O)[nH]c1=O | - | PBMC | D34 | - | <0.04 µM
C[C@]12CC[C@H]3[C@@H](CCC4=CC(=O)CC[C@@]43C)[C@@H]1CC[C@@H]2C(=O)O | - | H9 | IIIB | - | >67.3 µM
Cc1cn([C@H]2C[C@H](N=[N+]=[N-])[C@@H](CO)O2)c(=O)[nH]c1=O | - | PBMC | BAL R5 | - | <10 µM
Cc1ccc(C)n1-c1cccc(O)c1 | - | PBMC | IIIB | - | >80 µg/mL

5 of the rows above, restated:

compound,mutations,cells,strain or isolate,conditions,result
CCN1c2ncccc2-c2nccn2-c2ccc(OC)nc21,-,H9,IIIB,7 d,<0.008 µM
Cc1cn([C@H]2C[C@H](N=[N+]=[N-])[C@@H](CO)O2)c(=O)[nH]c1=O,-,PBMC,D34,-,<0.04 µM
CC(C)(C)NC(=O)[C@@H]1C[C@@H]2CCCC[C@@H]2CN1C[C@@H](O)[C@H](Cc1ccccc1)NC(=O)[C@H](CC(N)=O)NC(=O)c1ccc2ccccc2n1,-,Primary monocytes + Lymphocytes,BaL,-,0.0049 µM
Nc1ncnc2c1ncn2CCOCP(=O)(O)O,RT-P119S V179D L214F,MT-2,RT P119S V179D L214F,-,1.2 µM
Cc1cn([C@H]2C[C@H](N=[N+]=[N-])[C@@H](CO)O2)c(=O)[nH]c1=O,-,PBMC,BAL R5,-,<10 µM